Data set [1] relates to CCCCCCCCCCCCCC/C=C\OC[C@@H](O)COP(=O)([O-])OCC[N+](C)(C)C. The data set is described as follows: purified protein. The note with it: pH 7.1.
Data set [2] concerns CCCCCCCCCCCCCC/C=C\OC[C@@H](O)COP(=O)(O)OCCN. The data set is described as follows: purified protein. The note with it: pH 7.1.
Data set [3] concerns the target T1, MtbYhhN (261-aa protein) (Mycobacterium tuberculosis, UniProt P9WG51).
T1 construct: gene Rv1401

Sequences of proteins named here, by UniProt entry; tags and fusion partners are left off. A change or cut given only in a name is not applied to a line headed by its entry.
UniProt P9WG51: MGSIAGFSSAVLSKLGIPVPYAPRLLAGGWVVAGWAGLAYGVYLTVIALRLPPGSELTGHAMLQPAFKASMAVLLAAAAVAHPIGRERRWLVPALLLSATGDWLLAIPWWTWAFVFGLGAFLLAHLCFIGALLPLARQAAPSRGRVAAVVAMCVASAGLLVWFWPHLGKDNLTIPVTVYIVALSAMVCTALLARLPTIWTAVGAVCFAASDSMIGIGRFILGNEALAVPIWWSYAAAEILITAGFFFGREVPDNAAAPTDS

The Km is the concentration of substrate that gives half-maximal velocity. With “MtbYhhN (261-aa protein) (Mycobacterium tuberculosis H37Rv)”, the Km was found to be 76.9 µM in data set [1] and 89.4 µM in data set [2].

One may read the Ki as the equilibrium dissociation constant of an inhibitor or competing ligand from its target. Read a high Ki as lower affinity. lysophosphatidic acid [LPA] returned an inhibition constant (Ki) in data set [3] of 90 to 100 µM.

The values above are taken from PMC9052158, “Mycobacterium tuberculosis encodes a YhhN family membrane protein with lysoplasmalogenase activity that protects against toxic host lysolipids” (The Journal of Biological Chemistry, 2022).
